The exact form of at least one protein or probe is not confirmed.

The results in this text go back to PMC7239026.

The target of one data set is rCovR (UniProt I6L8Z3). The data set is described as follows: EMSA. As to conditions: poly d(I-C), poly-L-lysine, cold pepO competitor 200-fold used, 1X Binding Buffer ([…], pH 7.5), recombinant protein, label: 3' biotin, probe letters rebuilt from the primers and the genome.
In a further data set the target is rVicR (UniProt I6L8Z5). The data set is described as follows: EMSA. Particulars: poly d(I-C), poly-L-lysine, cold pepO competitor 200-fold used, 1X Binding Buffer ([…], pH 7.5), recombinant protein, label: 3' biotin, probe letters rebuilt from the primers and the genome.

For the sequence “AGCTCCGCTTTATATTCCTGCTATTGTTTATCTTGGCAATAAAGTTTATGAATCTCTTCGTAAAAATTTCGATTTACCCTCAAATAAAGAAGAAGCCAAGAAAACGATAGCAGATATTAAGAATGATCAAAGGCAATTTACGGGAAACGTTATTAGAATTACAACACAAAAAGATTGGCTAAACAACATTGCTCGTAATTTAGGTGCAGTTTATTTAGGCAAAGAACATATTATTATCAATTCTGGGGGTCATGATTTGCAGGGTATTGTAAATGATATGAAGCAAGTTGCTAATGTGAAGGCATTGGTTAGTATCTAGCA (double strand) [pepO promoter fragment]”, the binding result in the data set with rCovR and with rVicR was “binds” in each case.
